Compound potency records, mixed from different reports. Data source: NIAID ChemDB in PubChem.

Shared fields: enzyme or target tests

Percent inhibition refers to the dose given; in toxicity tests it is the harm to the cells. An empty or dashed field is not shown. Rows are shuffled and stem from different studies. ICn is the concentration giving n% inhibition.

smiles,tested at,protein,method,endpoint,strain,species,value
CC(C)C/C(=N\NC(=S)NNC(=S)Nc1ccccc1Cl)c1ccccn1,,Ribonucleotide reductase,,IC50,,Herpes simplex virus 1,>5 µM
CC[C@@H](NC(=O)[C@@H](NC(=O)[C@H](CC(=O)N1CCCC1)NC(=O)[C@@H](NC(=O)NC1[C@H](C)CCC[C@@H]1C)C(C)(C)C)C1(C(=O)O)CCCC1)C(C)(C)C,,Ribonucleotide reductase,radioligand binding / binding,IC50,,Herpes simplex virus 1,<0.001 µM
Nc1nc2c(ncn2[C@@H]2O[C@H](COP(=O)(O)O)[C@@H](O)[C@H]2O)c(=O)[nH]1,2000 µM,DNA polymerase,,inhibition,,Herpes simplex virus 1,47.9%
Cc1cn([C@@H]2O[C@H](CO)[C@@H](O)[C@@H]2F)c(=O)[nH]c1=O,,DTHD kinase,,Ki,333,Herpes simplex virus 2,2.5 µM
CC(C)[C@H](NC(=O)CCc1ccccc1)C(=O)N[C@H](C(=O)N[C@@H](CC(=O)N1CCCC1)C(=O)N[C@@H](CC(=O)O)C(=O)N[C@H](CO)CC(C)(C)C)C(C)C,,Ribonucleotide reductase,binding,IC50,,Herpes simplex virus 1,0.024 µM
Nc1nc(N)c2ncn([C@@H]3O[C@H](COP(=O)(O)OP(=O)(O)O)[C@@H](O)[C@H]3O)c2n1,,DNA polymerase,,IC50,,Herpes simplex virus 1,<2000 µM
CC(=O)NC[C@H]1O[C@@H](n2cc(I)c(=O)[nH]c2=O)C[C@@H]1O,,Thymidine kinase,,IC50,,Herpes simplex virus 2,78 µM
C[C@@H]1CCC[C@H](C)C1NC(=O)N[C@H](C(=O)C[C@@H](CC(=O)C(C)(C)C)C(=O)N[C@H](C(=O)N[C@H](CO)CC(C)(C)C)C1(C(=O)O)CCCC1)C(C)(C)C,,Ribonucleotide reductase,radioligand binding / binding,IC50,,Herpes simplex virus 2,<0.001 µM
Nc1nc(=O)n([C@@H]2O[C@H](CO)[C@@H](O)[C@@H]2F)cc1/C=C/Br,200 µM,Thymidine kinase,,inhibition,G,Herpes simplex virus 2,0%
C/C(=N\NC(=S)NNC(=S)Nc1ccccc1C)c1ccccn1,,Ribonucleotide reductase,,IC50,,Herpes simplex virus 1,>5 µM
Nc1nc2c(ncn2[C@@H]2O[C@H](CO)[C@@H](OP(=O)(O)O)[C@H]2O)c(=O)[nH]1,2000 µM,DNA polymerase,,inhibition,,Herpes simplex virus 1,85.9%
C[C@@H](c1ccccc1)N(CC(=O)Nc1ccc(-c2csc(N)n2)cc1)C(=O)c1ccncc1,,Helicase,,IC50,,Herpes simplex virus 1,1.3 µM
O=c1[nH]c(=O)n([C@@H]2O[C@H](CO)[C@@H](O)[C@@H]2O)cc1/C=C/Br,100 µM,Thymidine kinase,,inhibition,C42,Herpes simplex virus 1,84%
C#C[C@H]1O[C@@H](n2cc(C)c(=O)[nH]c2=O)C[C@@H]1O,,Thymidine kinase,,IC50,B3,Herpes simplex virus 1,7 µM
O=c1[nH]c(=O)n([C@@H]2O[C@H](CO)[C@@H](O)[C@@H]2F)cc1I,,DTHD kinase,,Ki,333,Herpes simplex virus 2,1.54 µM
CC(=O)NC[C@H]1O[C@@H](n2cc(C)c(=O)[nH]c2=O)C[C@@H]1O,,Thymidine kinase,,IC50,,Herpes simplex virus 1,>200 µM
O=c1[nH]c(=O)n([C@@H]2O[C@H](CO)[C@@H](O)[C@@H]2F)cc1/C=C/I,200 µM,Thymidine kinase,,inhibition,F,Herpes simplex virus 1,64.2%
CC[C@@H](N(C)C(=O)[C@@H](NC(=O)[C@@H](CC(=O)[C@@H](NC(=O)[C@H](C(C)C)N(C)C(=O)[C@H](C)[C@@H](C)C1CCCCC1)C(C)(C)C)CC(=O)C(C)(C)C)C1(C(=O)O)CCCC1)C(C)(C)C,,Ribonucleotide reductase,,IC50,,Herpes simplex virus 1,0.191 µM
C/C(=N\NC(=S)NNC(=S)Nc1ccccc1C(F)(F)F)c1ccccn1,,Ribonucleotide reductase,,IC50,,Herpes simplex virus 1,>5 µM
CC[C@@H](NC(=O)[C@@H](NC(=O)[C@@H](CC(=O)[C@@H](NC(=O)NC1[C@H](C)CCC[C@@H]1C)C(C)(C)C)CC(=O)N1CCCC1)C1(C(=O)O)CCCC1)C(C)(C)C,,Ribonucleotide reductase,radioligand binding / binding,IC50,,Herpes simplex virus 1,<0.001 µM
CCOC(=O)/C=C/c1cn([C@@H]2O[C@H](CO)[C@@H](O)[C@@H]2F)c(=O)nc1N,200 µM,Thymidine kinase,,inhibition,G,Herpes simplex virus 2,0%
Nc1ccn([C@@H]2O[C@H](COP(=O)(O)O)[C@@H](O)[C@H]2O)c(=O)n1,,DNA polymerase,,IC50,,Herpes simplex virus 1,<2000 µM
C/C(=N\NC(=S)NNC(=S)Nc1cccc(Cl)c1Cl)c1ccccn1,,Ribonucleotide reductase,,IC50,,Herpes simplex virus 1,>5 µM
C/C=C/c1cn([C@H]2C[C@H](O)[C@@H](CO)O2)c(=O)[nH]c1=O,5 µM,Thymidine kinase,,inhibition,91075,Herpes simplex virus 1,<0%
Nc1nc2c(ncn2CC[C@@H](CO)COP(=O)(O)OP(=O)(O)OP(=O)(O)O)c(=O)[nH]1,,DNA polymerase,,Ki,,Herpes simplex virus 1,8.5 µM
C#Cc1cn([C@@H]2O[C@H](CO)[C@@H](O)[C@@H]2F)c(=O)nc1N,200 µM,Thymidine kinase,,inhibition,G,Herpes simplex virus 2,13.7%
COc1ccc(S(=O)(=O)NC[C@H]2O[C@@H](n3cc(C)c(=O)[nH]c3=O)C[C@@H]2O)cc1,,Thymidine kinase,,IC50,,Herpes simplex virus 1,>200 µM
Nc1nc(=O)n([C@@H]2O[C@H](CO)[C@@H](O)[C@@H]2F)cc1I,,DTHD kinase,,Ki,KOS,Herpes simplex virus 1,1.09 µM
Cc1cn([C@H]2C[C@H](O)[C@@H](CNS(=O)(=O)c3ccc([N+](=O)[O-])cc3)O2)c(=O)[nH]c1=O,,Thymidine kinase,,IC50,,Herpes simplex virus 2,21 µM
C/C=C/c1cn([C@@H]2O[C@H](CO)[C@@H](O)[C@@H]2O)c(=O)[nH]c1=O,10 µM,Thymidine kinase,,inhibition,91075,Herpes simplex virus 1,<0%
O=c1[nH]c(=O)n([C@H]2C[C@H](O)[C@@H](CO)O2)cc1/C=C/Br,,DTHD kinase,,Ki,KOS,Herpes simplex virus 1,0.24 µM

A second listing of 2 rows from above:

smiles,tested at,protein,method,endpoint,strain,species,value
C[C@@H]1CCC[C@H](C)C1NC(=O)N[C@H](C(=O)C[C@@H](CC(=O)C(C)(C)C)C(=O)N[C@H](C(=O)N[C@H](CO)CC(C)(C)C)C1(C(=O)O)CCCC1)C(C)(C)C,,Ribonucleotide reductase,radioligand binding / binding,IC50,,Herpes simplex virus 2,<0.001 µM
Nc1ccn([C@@H]2O[C@H](COP(=O)(O)O)[C@@H](O)[C@H]2O)c(=O)n1,,DNA polymerase,,IC50,,Herpes simplex virus 1,<2000 µM